Conditions: BALB/c, mouse, in vivo, ip, 75 mg/kg

With `NC(=O)c1ncn([C@@H]2O[C@H](CO)[C@@H](O)[C@H]2O)n1` [Ribavirin, ribavirin] the Deaths in group was “d One mouse died on day 2, four mice died on day 5, and two mice died on day 6”.
